Assay results taken from paper PMC3743349 (PLoS ONE, 2013).

Biological target: HLA-DM (DM), soluble, wild type, biotinylated at the BirA tag (human, biotin on the BirA tag)
Assay: SPR
Details: both partners purified

B1:  (peptide-MHC)
chain 1: [about 200 residues left out]
chain 2: DTRPRFLWQLKFECHFFNGTERVRLLERSIYNQEESVRFDSDVGEYRAVTELGRPDAEYWNSQKDLLEQRRAAVDTYCRHNYGVGESFTVQRRVEPKVTVYPSKTQPLQHHNLLVCSVSGFYPGSIEVRWFRNGQEEKAGVVSTGLIQNGDWTFQTLVMLETVPRSGEVYTCQVEHPSVTSPLTVEWRARSE
chain 3: VVKQNCLKLATK
  fold reduction in binding compared to DR1:pHA*^P2-P11: 5 fold
